Test system: tetanus toxin
Assay: Survival of intranasally immunized mice to Tetanus Toxin challenge
Format: in vivo
Conditions: s.c. challenge 2 months after four weekly intranasal doses

**Q.** With Tetanus toxoid as the substance, how does the “protection against tetanus toxin challenge (paralysis and death)” value read?
**A.** Its value is “not protected”.

Source: patent US20060165722A1 (priority 2005, published 2006)
